A mixed list of measured activities; the numbers were collected in NIAID ChemDB.

Shared fields: growth or infection tests; agent: HIV-2; read-out: EC50

Neighbouring rows are from separate reports. ECn: concentration that inhibits the pathogen or its effect by n%. Blank or dashed fields: not listed here.

SMILES,strain,cells,read by,result
CC(=O)Nc1sc([N+](=O)[O-])cc1S(=O)(=O)c1ccc(Cl)cc1,ROD,CEM + CEM/O,cytopathic effect / MTT,>0.32 µg/mL
CC(C)c1ccc(CS(=O)(=O)c2cccc[n+]2[O-])cc1,ROD,MAGI,β-galactosidase,12 µg/mL
CC(C)N(C[C@H](O)[C@H](Cc1ccccc1)NC(=O)C(CC(N)=O)NC(=O)C1C=Cc2ccccc2N1)NC(=O)OC(C)(C)C,ROD,MT-2,cytopathic effect / RT activity,0.004 µM
CCOc1ccccc1CS(=O)c1cccc[n+]1[O-],ROD,CEM,syncytia,>4 µg/mL
O=c1[nH]c(=O)n([C@H]2C[C@H](F)[C@@H](CO)O2)cc1Cl,ROD,CEM + CEM/O,,2.5 µM
CC(=O)Nc1sc(Br)cc1S(=O)(=O)c1ccc(Cl)cc1,ROD,CEM + CEM/O,cytopathic effect / MTT,>200 µg/mL
COc1ccc2nc(Nc3nc(Nc4ccc(C#N)cc4)nc(Oc4cc(=O)n(C)c5ccccc45)n3)sc2c1,ROD,,MTT,>72.13 µg/mL
O=C(O)Cc1cc(O)ccc1O,ROD,MOLT-4,syncytia,4 µg/mL
CC(C)(C)C(=O)SCCOP(=O)(OCCSC(=O)C(C)(C)C)OC[C@H]1O[C@@H](n2cc(Cl)c(=O)[nH]c2=O)C[C@@H]1F,ROD,CEM + CEM/O,,5 µM
CCCCCCCCCC(=O)Oc1ccc(COP(=O)(OCc2ccc(OC(C)=O)cc2)OP(=O)(O)OCC2C=C[C@H](n3cc(C)c(=O)[nH]c3=O)O2)cc1,ROD,CEM/TK-,syncytia,6.31 µM
COC(=O)C(c1cc(C)ccc1C)S(=O)(=O)c1cccc[n+]1[O-],ROD,CEM,syncytia,6.7 µg/mL
Cc1cn([C@H]2C=C[C@@H](CO)O2)c(=O)[nH]c1=O,ROD,CEM + CEM TK-,,25 µM
CC(C)c1ccc(C(C)C)c(CS(=O)(=O)c2cccc[n+]2[O-])c1,ROD,CEM,syncytia,≥4 µg/mL
CCCCC(=O)Oc1ccc(COP(=O)(OCc2ccc(OC(=O)c3ccc(C(F)(F)F)cc3)cc2)OP(=O)(O)OCC2C=C[C@H](n3cc(C)c(=O)[nH]c3=O)O2)cc1,ROD,CEM/TK-,syncytia,6.31 µM
C=C(C)OC(=O)N1c2cc(Cl)ccc2NC(=S)C1(C)C,ROD,PBL,p24,>100 µM
O=S(=O)(O)c1cc(Cl)cc(Cc2cc(Cl)cc(S(=O)(=O)O)c2O)c1O,,MOLT-4/HUT-78,syncytia,>100 µg/mL
CC(C)(C)C(=O)OC[C@@H]1C=C[C@H](n2cc(F)c(=O)[nH]c2=O)O1,ROD,CEM + CEM/0,syncytia,>10 µM
Cc1ccc(C2CC(C3CCC4C5CC=C6CC(O)CC[C@]6(C)C5CC[C@]34C)=NN2C(N)=S)cc1,ROD,MT-2,MTT,>7.49 µM
CC(C)=CCN1CC(C)Cn2c(=S)[nH]c3cccc1c32,ROD,CEM(SS) + CEM-SS,cytopathic effect / XTT,>71.2 µM
O=C(O)CCc1ccc(O)c(O)c1,ROD,MOLT-4,syncytia,10 µg/mL
CCOC(=O)c1nnsc1Nc1ccccc1Nc1snnc1C(=O)OCC,ROD,,,26 µM
Nc1sccc1S(=O)(=O)c1ccccc1,ROD,CEM + CEM/O,cytopathic effect / MTT,32 µg/mL
CCCCCCCCCCCC(=O)Oc1ccc(COP(=O)(OCc2ccc(OC(=O)CCCC)cc2)OP(=O)(O)OCC2C=C[C@H](n3cc(C)c(=O)[nH]c3=O)O2)cc1,ROD,CEM/TK-,syncytia,6.31 µM
O=C(O)c1cc(O)c(O)c(O)c1,ROD,MOLT-4,syncytia,8 µg/mL
NC(N)=NCCC[C@H](NC(=O)CCNC(=O)CN(CCNC(=O)CN(CCNC(=O)OCc1ccccc1)C(=O)Cn1cnc2c(=O)[nH]c(N)nc21)C(=O)Cn1cnc2c(N)ncnc21)C(=O)O,,PBMC/D194 + PBMC,cytopathic effect / MTT,>200 µM
O=c1[nH]c(=O)n([C@H]2C=C[C@@H](CO)O2)cc1CO,D194,PBMC,RT activity,0.2 µM
O=c1[nH]c(=O)n([C@H]2C=C[C@@H](CO)O2)cc1F,ROD,CEM + CEM/0,syncytia,>10 µM
NC(=O)c1cc2c([nH]c3ccccc32)c(-c2ccc(CO)o2)n1,ROD,C8166,syncytia,0.57 µM
Cc1ccc(C)c(C(CC(C)C)S(=O)(=O)c2cccc[n+]2[O-])c1,ROD,CEM,syncytia,>4 µg/mL
Cc1nc(CCCCCCC(=O)c2ccccc2)n2nc(NCCCCCCNCc3cn([C@H]4C=C[C@@H](CO)O4)c(=O)[nH]c3=O)ccc12,D194,PBMC,RT activity,0.1 µM
CC(C)[C@H](NC(=O)[C@H](Cc1ccccc1)C[C@H](O)[C@H](Cc1ccccc1)NC(=O)OC(C)(C)C)C(=O)N[C@@H](Cc1ccccc1)C(=O)N1CCOCC1,ROD,PBL,RT activity,0.8 µM
O=C(O)c1cc(Cc2cc(C(c3ccc(O)c(C(=O)O)c3)c3ccc(O)c(C(=O)O)c3)cc(C(=O)O)c2O)ccc1O,ROD,MOLT-4/HUT-78,syncytia,7 µg/mL
Cc1nc(CCCCCCC(=O)c2ccccc2)n2nc(Cl)ccc12,D194,PBMC,RT activity,>10 µM
Cc1ccc[n+]([O-])c1S(=O)(=O)Cc1cccc([N+](=O)[O-])c1C,ROD,CEM,syncytia,>4 µg/mL
Cc1ccc2nc(Nc3nc(Nc4ccc(C#N)cc4)nc(Oc4cc(=O)n(C)c5ccccc45)n3)sc2c1,ROD,,MTT,>3.88 µg/mL
Cc1cn([C@@H]2O[C@H](CO[Si](C)(C)C(C)(C)C)C3(OS(=O)(=O)C=C3N)[C@H]2O[Si](C)(C)C(C)(C)C)c(=O)n(CCCCCCCCn2c(=O)c(C)cn([C@H]3C[C@H](N=[N+]=[N-])[C@@H](CO)O3)c2=O)c1=O,ROD,CEM(TK-) + CEM TK-,syncytia,>100 µM
Cc1ccc[n+]([O-])c1SC(C)c1ccccc1,ROD,CEM,syncytia,>20 µg/mL
COC(=O)[C@H](CCCN=C(N)N)NC(=O)CCCCCNC(=O)CN(CCNC(=O)CN(CCNC(=O)OCc1ccccc1)C(=O)Cn1cnc2c(=O)[nH]c(N)nc21)C(=O)Cn1cnc2c(N)ncnc21,,PBMC/D194 + PBMC,cytopathic effect / MTT,>200 µM
CC(C)CCC[C@@H](C)[C@H]1CC[C@H]2[C@@H]3CC[C@H]4C[C@@H](CCC=C(c5cc(Cl)c(O)c(C(=O)O)c5)c5cc(Cl)c(O)c(C(=O)O)c5)CC[C@]4(C)[C@H]3CC[C@]12C,ROD,HuT-78 + HUT 78,syncytia,25 µg/mL
Nc1nc(=O)n([C@@H]2CC[C@H](CO)O2)cc1Cl,ROD,CEM + CEM/O,,>250 µM
Cc1ccc(C)c(C(C)S(=O)c2cccc[n+]2[O-])c1,ROD,CEM,syncytia,>0.8 µg/mL
Nc1sccc1S(=O)(=O)c1ccc(F)cc1,ROD,CEM + CEM/O,cytopathic effect / MTT,>8 µg/mL
CCOCc1cn([C@H]2C=C[C@@H](CO)O2)c(=O)[nH]c1=O,D194,PBMC,RT activity,4.7 µM
C=C(C)[C@]1(O)C[C@@H](C)[C@@]2(O)[C@H]([C@H]1OC(=O)/C=C/C=C/CCCCC)[C@@H]1O[C@]1(CO)[C@@H](O)[C@]1(O)C(=O)C(C)=C[C@H]12,CBL-20,C8166,syncytia,0.05292 µM
O=C(O)c1cc(C(O)(c2ccc(O)c(C(=O)O)c2)c2ccc(O)c(C(=O)O)c2)ccc1O,ROD,MOLT-4/HUT-78,syncytia,40 µg/mL
COc1ccnc2[nH]cc(C(=O)C(=O)N3CCN(C(=O)c4ccccc4)C[C@H]3C)c12,,,,>300 µM
Cc1nc(CCCCCCC(=O)c2ccccc2)n2nc(NCCCCCCCCN)ccc12,D194,PBMC,RT activity,>10 µM
CC(=O)Oc1ccc(COP(=O)(OCc2ccc(OC(=O)c3ccc(C)cc3)cc2)OP(=O)(O)OCC2C=C[C@H](n3cc(C)c(=O)[nH]c3=O)O2)cc1,ROD,CEM/TK-,syncytia,6.31 µM
Cc1cc(C)c(S(=O)(=O)OCC2OC3OC4C(CO)OC(OC5C(CO)OC(OC6C(CO)OC(OC7C(CO)OC(OC8C(CO)OC(OC9C(C[n+]%10ccccc%10)OC(OC2C(O)C3O)C(O)C9O)C(O)C8O)C(O)C7O)C(O)C6O)C(O)C5O)C(O)C4O)c(C)c1,GH-1,MOLT-4,syncytia,<64.4 µg/mL
N#C/C(=C/c1c(Cl)cccc1Cl)S(=O)(=O)c1cccc[n+]1[O-],ROD,CEM,syncytia,>4 µg/mL
O=C(O)c1ccc(-c2c3nc(c(-c4ccc(C(=O)O)cc4)c4ccc([nH]4)c(-c4ccc(C(=O)O)cc4)c4nc(c(-c5ccc(C(=O)O)cc5)c5ccc2[nH]5)C=C4)C=C3)cc1,ROD,HuT-78 + HUT 78,syncytia,59 µg/mL
COc1cc(-c2nnc(Sc3nc(Nc4ccc(C#N)cc4)nc(Oc4cc(=O)n(C)c5ccccc45)n3)o2)cc(OC)c1OC,ROD,,MTT,>65.13 µg/mL
c1ccc(CSc2ccccn2)cc1,ROD,CEM,syncytia,>20 µg/mL
Cc1ccc(S(=O)(=O)c2ccsc2N)cc1,ROD,CEM + CEM/O,cytopathic effect / MTT,>20 µg/mL
Cc1ccccc1C(c1ccccc1)S(=O)(=O)c1cccc[n+]1[O-],ROD,CEM,syncytia,>20 µg/mL
COP(=O)(c1cc(C)cc(CCC#N)c1)c1c(C(N)=O)[nH]c2ccc(Cl)cc12,ROD,H9,,>1.25 µM
CCCCCCNP(=O)(OC[C@H]1O[C@@H](n2cc(C)c(=O)[nH]c2=O)C[C@@H]1N=[N+]=[N-])Oc1ccccc1,ROD,CEM(TK-) + CEM TK-,,>8 µM
CC1=[N+](C)N(c2ccccc2)C(=O)C1Nc1nc(Nc2ccc(C#N)cc2)nc(Oc2cc(=O)n(C)c3ccccc23)n1,ROD,,MTT,>125 µg/mL
O=c1cc(Cc2ccc3ccccc3c2)nc(SC2CCCC2)[nH]1,ROD,C8166,cytopathic effect / MTT,>100 µM
Cn1c(=O)cc(Oc2nc(Nc3ccc(C#N)cc3)nc(Nc3nc4ccc([N+](=O)[O-])cc4s3)n2)c2ccccc21,ROD,,MTT,>69.28 µg/mL
CC(=O)Nc1sc([N+](=O)[O-])cc1S(=O)(=O)c1ccc(F)cc1,ROD,CEM + CEM/O,cytopathic effect / MTT,>0.32 µg/mL
COC(=O)C(C)NP(=O)(OC[C@@H]1C=C[C@H](n2cc(F)c(=O)[nH]c2=O)O1)Oc1ccccc1,ROD,CEM + CEM/0,syncytia,33 µM
CCCCCCCCCCCCCCCCCCOP(=O)(OCCCC)OP(=O)(O)OP(=O)(O)OP(=O)(O)OC[C@@H]1C=C[C@H](n2cc(C)c(=O)[nH]c2=O)O1,ROD,CD4+ T-cell,syncytia / visual reading,0.041 µM
O=S(=O)(Cc1ccccc1)c1ncccc1O,ROD,CEM,syncytia,>100 µg/mL
NC(N)=NCCC[C@H](NC(=O)CCCCCNC(=O)CN(CCNC(=O)CN(CCNC(=O)OCc1ccccc1)C(=O)Cn1cnc2c(N)ncnc21)C(=O)Cn1cnc2c(=O)[nH]c(N)nc21)C(=O)O,,PBMC/D194 + PBMC,cytopathic effect / MTT,>200 µM
Cc1ccccc1CS(=O)c1cccc[n+]1[O-],ROD,CEM,syncytia,6 µg/mL
Cc1cc(O)ccc1O,ROD,MOLT-4,syncytia,22 µg/mL
COC(=O)C(c1cccc(Oc2ccccc2)c1)S(=O)(=O)c1cccc[n+]1[O-],ROD,CEM,syncytia,>4 µg/mL
COc1ccc2[nH]c(=O)c(CN(Cc3cccnc3)S(=O)(=O)c3cccc4nsnc34)cc2c1,ROD,MOLT-4,p24 / ELISA,0.1105 µM
Cc1nc(CCCCCCC(=O)c2ccccc2)n2nc(NCCCCCCN)ccc12,D194,PBMC,RT activity,>10 µM
O=C(O)Cc1ccc(O)c(O)c1,ROD,MOLT-4,syncytia,4 µg/mL

Repeating the first 6 entries:

{"SMILES": "CC(=O)Nc1sc([N+](=O)[O-])cc1S(=O)(=O)c1ccc(Cl)cc1", "strain": "ROD", "cells": "CEM + CEM/O", "read by": "cytopathic effect / MTT", "result": ">0.32 µg/mL"}
{"SMILES": "CC(C)c1ccc(CS(=O)(=O)c2cccc[n+]2[O-])cc1", "strain": "ROD", "cells": "MAGI", "read by": "β-galactosidase", "result": "12 µg/mL"}
{"SMILES": "CC(C)N(C[C@H](O)[C@H](Cc1ccccc1)NC(=O)C(CC(N)=O)NC(=O)C1C=Cc2ccccc2N1)NC(=O)OC(C)(C)C", "strain": "ROD", "cells": "MT-2", "read by": "cytopathic effect / RT activity", "result": "0.004 µM"}
{"SMILES": "CCOc1ccccc1CS(=O)c1cccc[n+]1[O-]", "strain": "ROD", "cells": "CEM", "read by": "syncytia", "result": ">4 µg/mL"}
{"SMILES": "O=c1[nH]c(=O)n([C@H]2C[C@H](F)[C@@H](CO)O2)cc1Cl", "strain": "ROD", "cells": "CEM + CEM/O", "result": "2.5 µM"}
{"SMILES": "CC(=O)Nc1sc(Br)cc1S(=O)(=O)c1ccc(Cl)cc1", "strain": "ROD", "cells": "CEM + CEM/O", "read by": "cytopathic effect / MTT", "result": ">200 µg/mL"}